Results of unrelated studies side by side (data: NIAID ChemDB).

Shared fields: growth or infection tests; organism: Varicella zoster virus; measure: EC50

Lines come from different laboratories, so protocols vary. Two numbers with a dash give a range or band. ECn is the concentration giving n% inhibition of infection, replication or growth.

Nc1ccn(C[C@@H](CO)OCP(=O)(O)O)c(=O)n1 ; strain or isolate: Oka CF1743-resistant ; cell line: HEL ; method: cytopathic effect ; result: 0.05 µM
c1coc(-c2cc3ccccn3c2)c1 ; strain or isolate: G-31 ; cell line: MRC-5 ; method: plaque count ; result: 8.6 µM
O=c1[nH]c(=O)n([C@H]2C[C@H](O)[C@@H](CO)O2)cc1/C=C/Br ; strain or isolate: HIRAI ; cell line: HEF ; method: plaque count ; result: 0.002 µg/mL
CC(NC(=S)Nc1ccc(NC(=O)c2ccccc2F)cc1)c1ccc(F)cc1 ; strain or isolate: ELLEN ; cell line: HFF ; method: ELISA ; result: 0.26 µg/mL
Nc1nc2c(ncn2CCC(CO)CO)c(=O)[nH]1 ; strain or isolate: Oka penciclovir-resistant/A ; cell line: HEL ; method: cytopathic effect ; result: 12.5 µM
CC1(C)[C@H](CCO)C[C@@H]1n1cnc2c(N)ncnc21 ; strain or isolate: OKA (TK+) ; method: plaque count ; result: 20 µg/mL
Cc1cn([C@@H]2O[C@H](CO)[C@H]2CO)c(=O)[nH]c1=O ; strain or isolate: V8602/5-1-1 ; cell line: HFF ; method: plaque count ; result: 0.008 µg/mL
Nc1ncnc2c1ncn2C[C@@H](CO)OCP(=O)(O)O ; strain or isolate: OKA (WILD TYPE) ; cell line: HEL ; method: cytopathic effect ; result: 0.046 µM
O=c1[nH]c(=O)n([C@@H]2O[C@H](CO)[C@@H](O)[C@@H]2O)cc1/C=C/Cl ; strain or isolate: Kawaguchi acyclovir-resistant mutant A8 ; method: plaque count ; result: 0.000393 µg/mL
CC1(C)[C@H](CCO)C[C@@H]1n1nnc2c(N)ncnc21 ; strain or isolate: YS/R (TK-) ; method: plaque count ; result: 3.5 µg/mL
Nc1nc2c(ncn2CC(CO)CCO)c(=O)[nH]1 ; strain or isolate: ULF ; cell line: HL ; result: 0.4–0.7 µM
Cc1cn([C@H]2C[C@H](O)[C@@H](CO)O2)c(=S)nc1N ; strain or isolate: Kanno-Kohmura (TK-) ; cell line: MRC-5 ; method: plaque count ; result: >300.8 µM
CCCCCCOC(=O)c1ccc2cc(-c3ccccc3)cn2c1 ; strain or isolate: G-31 ; cell line: MRC-5 ; method: plaque count ; result: >40 µM
Nc1nc(=S)n([C@@H]2O[C@H](CO)[C@@H](O)[C@@H]2O)cc1CO ; strain or isolate: CAQU (TK+) ; cell line: MRC-5 ; method: plaque count ; result: 131.8 µM
Cn1cc(C(=O)NCc2ccc(Cl)cc2)c(=O)c2cc(CN3CCOCC3)ccc21 ; strain or isolate: MO varicella isolate ; cell line: HFF ; method: plaque count ; result: 0.4 µM
CC(=O)c1c(-c2ccc(C#N)cc2)cc2ccccn12 ; strain or isolate: G-31 ; cell line: MRC-5 ; method: plaque count ; result: 5 µM
O=c1[nH]c(=O)n([C@H]2C[C@H](O)[C@@H](CO)O2)cc1/C=C/I ; strain or isolate: OKA ; cell line: HEF ; method: plaque count ; result: 0.001 µg/mL
Nc1nc(=S)n([C@@H]2O[C@H](CO)[C@@H](O)[C@@H]2O)cc1/C=C/c1ccccc1 ; strain or isolate: HOSEN (TK+) ; cell line: MRC-5 ; method: plaque count ; result: 222.5 µM
Cn1cc(C(=O)NCc2ccc(Cl)cc2)c(=O)c2cc(/C=C\CO)cc(F)c21 ; cell line: VERO ; method: plaque count ; result: 0.4 µM
Nc1nc2c(ncn2CC(CO)CCO)c(=O)[nH]1 ; cell line: HL ; method: plaque count ; result: 4.2 µM
CC(O)c1cn([C@@H]2O[C@H](CO)[C@@H](O)[C@@H]2O)c(=S)[nH]c1=O ; strain or isolate: CAQU (TK+) ; cell line: MRC-5 ; method: plaque count ; result: >263.5 µM
Nc1nc2c(ncn2[C@H]2C=C[C@@H](CO)[C@H](O)C2)c(=O)[nH]1 ; strain or isolate: 07/1 (TK-) ; cell line: E6SM ; method: cytopathic effect ; result: 5.8 µg/mL
Clc1ccc(-c2cc3ccccn3c2)cc1Cl ; strain or isolate: G-31 ; cell line: MRC-5 ; method: plaque count ; result: >40 µM
O=c1[nH]c(=O)n([C@H]2C[C@H](O)[C@@H](CO)O2)cc1I ; strain or isolate: Ohtomo ; cell line: HEF ; method: plaque count ; result: 1 µg/mL
O=C(NCc1ccc(Cl)cc1)c1c[nH]c2c(F)cccc2c1=O ; strain or isolate: Webster ; method: plaque count ; result: 0.7 µM
CCCCCc1ccc(-c2cc3cn(C4C[C@H](F)[C@@H](CO)O4)c(=O)nc3o2)cc1 ; strain or isolate: YS (TK-) ; result: >2 µM
CC#COc1cn([C@H]2C[C@H](O)[C@@H](CO)O2)c(=O)[nH]c1=O ; strain or isolate: VEX411 ; cell line: HEF ; method: cytopathic effect ; result: 0.5 µg/mL
CCc1cn([C@@H]2O[C@H](CO)[C@@H](O)[C@@H]2O)c(=S)nc1N ; strain or isolate: CAQU (TK+) ; cell line: MRC-5 ; method: plaque count ; result: >264.9 µM
O=c1[nH]c(=O)n([C@H]2C[C@H](O)[C@@H](CO)O2)cc1/C=C/Br ; cell line: HEL 299 ; result: 0.06 µM
CCCc1cn([C@H]2C[C@H](O)[C@@H](CO)O2)c(=S)[nH]c1=O ; strain or isolate: CAQU (TK+) ; cell line: MRC-5 ; method: plaque count ; result: 3.1 µM
C=Cc1cn([C@@H]2O[C@H](CO)[C@@H](O)[C@@H]2O)c(=O)[nH]c1=O ; strain or isolate: Kawaguchi acyclovir-resistant mutant A6 ; method: plaque count ; result: 0.115 µg/mL
O=C(O)c1cccn2cc(-c3ccccc3)cc12 ; strain or isolate: G-31 ; cell line: MRC-5 ; method: plaque count ; result: >40 µM
C=Cc1cn([C@@H]2O[C@H](CO)[C@@H](O)[C@@H]2O)c(=S)[nH]c1=O ; strain or isolate: CAQU (TK+) ; cell line: MRC-5 ; method: plaque count ; result: >266.3 µM
CC1(C)[C@H](CCO)C[C@@H]1n1cnc2c(Cl)ncnc21 ; strain or isolate: 07/1 (TK-) ; method: plaque count ; result: >50 µg/mL
Nc1ncnc2c1ncn2[C@@H]1C=C(CO)[C@@H](O)[C@H]1O ; strain or isolate: 07/1 YS/R (TK-) ; cell line: VERO ; method: cytopathic effect ; result: 40 µg/mL
OC[C@H]1OC(c2c(-c3ccccc3)cc3c(Cl)cc(C(F)(F)F)cn23)[C@H](O)[C@@H]1O ; strain or isolate: G-31 ; cell line: MRC-5 ; method: plaque count ; result: >40 µM
O=c1[nH]c(=O)n([C@@H]2CO[C@H](CO)O2)cc1/C=C/Br ; cell line: HEL 299 ; result: 0.05 µM
Cc1cn([C@H]2C[C@H](O)[C@@H](CO)O2)c(=S)[nH]c1=O ; strain or isolate: Kanno-Kohmura (TK-) ; cell line: MRC-5 ; method: plaque count ; result: >302.6 µM
Nc1nc2c(ncn2[C@@H]2C=C[C@H](CO)[C@@H](O)C2)c(=O)[nH]1 ; strain or isolate: YS ; result: 0.49 µg/mL
Clc1cccn2cc(-c3ccccc3)cc12 ; strain or isolate: G-31 ; cell line: MRC-5 ; method: plaque count ; result: 12.5 µM
O=c1[nH]c(=O)n([C@@H]2O[C@H](CO)[C@@H](O)[C@@H]2O)cc1/C=C/Br ; strain or isolate: Oka acyclovir-resistant ; cell line: HEL ; method: cytopathic effect ; result: ≥37.5 µM

Repeating the first 5 entries:

compound | strain or isolate | cell line | method | result
Nc1ccn(C[C@@H](CO)OCP(=O)(O)O)c(=O)n1 | Oka CF1743-resistant | HEL | cytopathic effect | 0.05 µM
c1coc(-c2cc3ccccn3c2)c1 | G-31 | MRC-5 | plaque count | 8.6 µM
O=c1[nH]c(=O)n([C@H]2C[C@H](O)[C@@H](CO)O2)cc1/C=C/Br | HIRAI | HEF | plaque count | 0.002 µg/mL
CC(NC(=S)Nc1ccc(NC(=O)c2ccccc2F)cc1)c1ccc(F)cc1 | ELLEN | HFF | ELISA | 0.26 µg/mL
Nc1nc2c(ncn2CCC(CO)CO)c(=O)[nH]1 | Oka penciclovir-resistant/A | HEL | cytopathic effect | 12.5 µM